This is an account of results in article PMC3466378 (Journal of immunology (Baltimore, Md. : 1950), 2012).

Molecules are shown by their SMILES.

This test concerns the target HLA-DR1 (Homo sapiens, UniProt P01903+P01911, A100R/D57E/F55L/F60I/F76Y/I96L/L162R/M171V/P40L/Q125E/R42F/V115G/Y59C). Kind of test: biochemical. In kind it is binding.

By IC50 is commonly meant the concentration needed to halve the response being measured. A high value points to lower potency. `CC[C@H](C)[C@H](NC(=O)CNC(=O)[C@@H](NC(=O)[C@@H]1CCCN1C(=O)[C@@H](N)[C@@H](C)O)[C@@H](C)CC)C(=O)N[C@H](C(=O)N[C@@H](CO)C(=O)N[C@@H](C)C(=O)N[C@@H](CCC(N)=O)C(=O)N[C@H](C(=O)N[C@@H](CC(C)C)C(=O)N[C@@H](CO)C(=O)N[C@@H](CCC(=O)O)C(=O)N[C@@H](CCCCN)C(=O)N[C@@H](Cc1ccccc1)C(=O)O)C(C)C)[C@@H](C)CC` [J6R (924–938)] had an IC50 of 21 nM.
